Assay results reported in paper PMC7424068, “Design, Synthesis, and Biological Evaluation of Novel Thiazolidinone-Containing Quinoxaline-1,4-di-N-oxides as Antimycobacterial and Antifungal Agents” (Frontiers in Chemistry, 2020).

test system: VERO cell line; assay: Cytotoxicity MTT assay; type: cell-based; conditions: selectivity index, VERO IC50 / Mtb H37Rv MIC
Experimental: VERO cells (2 × 10^4 cells) were seeded into 96-well plates and incubated for 12 h. Serial dilutions of the compounds were mixed with the cell suspension in the plates. Both treated cells and blank and solvent controls were incubated for 72 h, followed by incubation with MTT (0.5 mg/mL) for another 4 h. The microplates were measured at 570 nm using a multimode reader (Infinite M200, Tecan). The percentage of viable cells was calculated as the mean with respect to the controls set to 100%. Triplicate wells were analyzed for each concentration. IC50 was defined as the concentration that reduced the viable cells by 50% compared to the untreated control cells. It was considered significant when the SI was more than 10.

| Structure (SMILES) | SI (IC50/MIC) |
| --- | --- |
| O=C1CSC(c2c[n+]([O-])c3ccccc3[n+]2[O-])N1c1ccccc1 (stereo not drawn) [2a, 2-(3′-phenyl-4′(5H)-thiazolidinone)-quinoxaline-1,4-di-N-oxide] | 23 |
| O=C1CSC(c2c[n+]([O-])c3ccccc3[n+]2[O-])N1c1ccc(F)cc1 (stereo not drawn) [2d, 2-(3′-P-fluorophenyl-4′(5H)-thiazolidinone)-quinoxaline-1,4-di-N-oxide] | 39.2 |
| O=C1CSC(c2c[n+]([O-])c3ccccc3[n+]2[O-])N1c1ccc(Cl)cc1 (stereo not drawn) [2e, 2-(3′-P-chlorophenyl-4′(5H)-thiazolidinone)-quinoxaline-1,4-di-N-oxide] | 37 |
| Cc1ccc2c(c1)[n+]([O-])c(C1SCC(=O)N1c1ccc(F)cc1)c[n+]2[O-] (stereo not drawn) [2j, 7-CH3-2-(3′-P-fluorophenyl-4′(5H)-thiazolidinone)-quinoxaline-1,4-di-N-oxide] | 18.2 |
| Cc1ccc2c(c1)[n+]([O-])c(C1SCC(=O)N1c1ccc(Cl)cc1)c[n+]2[O-] (stereo not drawn) [2k, 7-CH3-2-(3′-P-chlorophenyl-4′(5H)-thiazolidinone)-quinoxaline-1,4-di-N-oxide] | 32.7 |
| O=C1CSC(c2c[n+]([O-])c3ccc(F)cc3[n+]2[O-])N1c1ccccc1 (stereo not drawn) [2q, 7-F-2-(3′-phenyl-4′(5H)-thiazolidinone)-quinoxaline-1,4-di-N-oxide] | 20.2 |
| O=C1CSC(c2c[n+]([O-])c3ccc(F)cc3[n+]2[O-])N1c1ccc(F)cc1 (stereo not drawn) [2t, 7-F-2-(3′-P-fluorophenyl-4′(5H)-thiazolidinone)-quinoxaline-1,4-di-N-oxide] | 64.7 |
| O=C1CSC(c2c[n+]([O-])c3ccc(F)cc3[n+]2[O-])N1c1ccc(Cl)cc1 (stereo not drawn) [2u, 7-F-2-(3′-P-chlorophenyl-4′(5H)-thiazolidinone)-quinoxaline-1,4-di-N-oxide] | 58.5 |
| O=C1CSC(c2c[n+]([O-])c3ccc(Cl)cc3[n+]2[O-])N1c1ccccc1 (stereo not drawn) [2v, 7-Cl-2-(3′-phenyl-4′(5H)-thiazolidinone)-quinoxaline-1,4-di-N-oxide] | 38 |
| Cc1ccc(N2C(=O)CSC2c2c[n+]([O-])c3ccc(Cl)cc3[n+]2[O-])cc1 (stereo not drawn) [2w, 7-Cl-2-(3′-P-methylphenyl-4′(5H)-thiazolidinone)-quinoxaline-1,4-di-N-oxide] | 20 |
| O=C1CSC(c2c[n+]([O-])c3ccc(Cl)cc3[n+]2[O-])N1c1ccc(F)cc1 (stereo not drawn) [2y, 7-Cl-2-(3′-P-fluorophenyl-4′(5H)-thiazolidinone)-quinoxaline-1,4-di-N-oxide] | 68.5 |
| O=C1CSC(c2c[n+]([O-])c3ccc(Cl)cc3[n+]2[O-])N1c1ccc(Cl)cc1 (stereo not drawn) [2z, 7-Cl-2-(3′-P-chlorophenyl-4′(5H)-thiazolidinone)-quinoxaline-1,4-di-N-oxide] | 60.6 |
